{"source": "ChEMBL document CHEMBL2040821", "about": "“Design, synthesis, and biological evaluation of 1-[(2-benzyloxyl/alkoxyl)methyl]-5-halo-6-aryluracils as potent HIV-1 non-nucleoside reverse transcriptase inhibitors with an improved drug resistance profile” (J Med Chem, 2012)", "target": "Human immunodeficiency virus type 1 reverse transcriptase (Human immunodeficiency virus 1) (UniProt Q72547)", "assay": "Ratio of nevirapine IC50 to compound IC50 for HIV1 reverse transcriptase", "data": [{"smiles": "Cc1cc(C)cc(Cc2c(I)c(=O)[nH]c(=O)n2COCc2ccccc2)c1", "values": [{"measurement": "Ratio IC50", "result": 1370}]}]}
